Pooled drug test results. Numbers come from NIAID ChemDB, via PubChem.

All rows: tests in culture; agent: Cryptosporidium parvum

Percent inhibition refers to the dose given; in toxicity tests it is the harm to the cells. Rows are shuffled and stem from different studies. Blank or dashed fields: not listed here. ECn is the concentration giving n% inhibition of infection, replication or growth.

structure,strain,cells,method,read-out,tested at,value
NS(=O)(=O)c1cc([N+](=O)[O-])c(N2COC2)c([N+](=O)[O-])c1,-,MDCK cells,ELISA / luminescence,EC50,-,0.46 µM
CC(=O)N[C@@H](CC(C)C)C(=O)N[C@@H](CC(C)C)C(=O)N[C@H](C=O)CCCN=C(N)N,-,-,cell count / microscopy,inhibition,500 µg/mL,56.6%
CCC(CC)Nc1c([N+](=O)[O-])cc(S(N)(=O)=O)cc1[N+](=O)[O-],-,MDCK cells,ELISA / luminescence,EC50,-,0.74 µM
Nc1ccn([C@@H]2O[C@H](CO)[C@@H](O)[C@@H]2O)c(=O)n1,-,-,-,inhibition,100 µg/mL,70%
CCN(CC)CCCC(C)Nc1ccnc2cc(Cl)ccc12,Calf isolate,L929,-,inhibition,0.8 µg/mL,35.76%
CO[C@H]1O[C@@H](n2ccc(=O)[nH]c2=O)C[C@@H]1N=[N+]=[N-],-,-,-,inhibition,50 µg/mL,12%
CC[C@@]1([C@@H]2O[C@@H]([C@H]3O[C@@](O)(CO)[C@H](C)C[C@@H]3C)C[C@@H]2C)CC[C@H]([C@]2(C)CC[C@]3(C[C@H](O)[C@@H](C)[C@@H]([C@@H](C)[C@@H](OC)[C@H](C)C(=O)O)O3)O2)O1,Calf isolate,L929,-,inhibition,0.032 µg/mL,35.14%
Cc1cn([C@H]2C[C@H](N=[N+]=[N-])[C@@H](CO)O2)c(=O)[nH]c1=O,-,-,-,inhibition,50 µg/mL,14%
N#CC(c1ccc(Cl)cc1)c1c(Cl)cc(-n2ncc(=O)[nH]c2=O)cc1Cl,Calf isolate,L929,-,inhibition,0.032 µg/mL,7.52%
O=c1[nH]c(=O)n([C@H]2C[C@H](O)[C@@H](CO)O2)cc1I,-,-,-,inhibition,2 µg/mL,75%
CC(C)(C)NC(=O)[C@@H]1CN(Cc2cccnc2)CCN1C[C@@H](O)C[C@@H](Cc1ccccc1)C(=O)N[C@H]1c2ccccc2C[C@H]1O,-,HCT-8,-,inhibition,200 µg/mL,50%
CC1NC(=O)C(C)NC(=O)C2CCCN2C(=O)C(CCCCCC(=O)C2CO2)NC1=O,-,-,-,MIC,-,0.18 µg/mL
O=c1[nH]c(=O)n([C@H]2C[C@H](O)[C@@H](CO)O2)cc1C(F)(F)F,-,-,-,inhibition,50 µg/mL,88%
CN(C)[C@@H]1C(=O)C(C(N)=O)=C(O)[C@@]2(O)C(=O)C3=C(O)c4c(O)cccc4[C@@](C)(O)[C@H]3[C@H](O)[C@@H]12,Calf isolate,L929,-,inhibition,4 µg/mL,44.41%
CCCN(CCC)c1c([N+](=O)[O-])cc(C(F)(F)F)cc1[N+](=O)[O-],-,MDCK cells,ELISA / luminescence,EC50,-,0.13 µM
N/C(=N\N=C\c1ccc(Cl)cc1)N/N=C/c1ccc(Cl)cc1,Human isolate,L929,-,inhibition,0.8 µg/mL,10.05%
O=S(=O)(F)Cc1ccccc1,-,-,-,inhibition,2000 µM,44.1%
CCc1nc(N)nc(N)c1-c1ccc(Cl)cc1,Calf isolate,L929,-,inhibition,0.8 µg/mL,51.78%
CCCN(CCC)c1c([N+](=O)[O-])cc(S(N)(=O)=O)cc1[N+](=O)[O-],-,MDCK cells,ELISA / luminescence,EC50,-,0.15 µM
CC1NC(=O)C(C)NC(=O)C2CCCN2C(=O)C(CCCCCC(=O)CCO)NC1=O,-,-,-,MIC,-,>1 µg/mL
CO[C@@H]1[C@@H](O[C@@H]2O[C@H](C)[C@@H](O[C@H]3C[C@@](C)(O)[C@@H](O)[C@H](C)O3)[C@H](N(C)C)[C@H]2O)[C@@H](CC=O)C[C@@H](C)[C@@H](O[C@H]2CC[C@H](N(C)C)[C@H](C)O2)/C=C/C=C/C[C@@H](C)OC(=O)C[C@H]1O,Calf isolate,L929,-,inhibition,0.8 µg/mL,30.05%
NS(=O)(=O)c1cc([N+](=O)[O-])c(N(CCO)CCO)c([N+](=O)[O-])c1,-,MDCK cells,ELISA / luminescence,EC50,-,>10 µM

A second listing of 3 rows from above:

structure | strain | cells | method | read-out | tested at | value
CCN(CC)CCCC(C)Nc1ccnc2cc(Cl)ccc12 | Calf isolate | L929 | - | inhibition | 0.8 µg/mL | 35.76%
CCCN(CCC)c1c([N+](=O)[O-])cc(S(N)(=O)=O)cc1[N+](=O)[O-] | - | MDCK cells | ELISA / luminescence | EC50 | - | 0.15 µM
O=c1[nH]c(=O)n([C@H]2C[C@H](O)[C@@H](CO)O2)cc1C(F)(F)F | - | - | - | inhibition | 50 µg/mL | 88%